Record: PubChem BioAssay AID504761 (Drosophila RNAi Screening Center, 2011)

- Test: 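Genome-wide fly cell screen for genes dengue virus requires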 (primary screen)
- Cells: D.Mel-2 cells from Drosophila
- Reagent: long dsRNA against Drosophila genes
- Conditions: infection with dengue virus type 2; dose and infection time not stated
- Measurement: 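Cells stained for dengue envelope protein and imaged; percent of infected cells per well on duplicate plates, ranked by infection, with stained nuclei counted for cell number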
- Scale: infection score: higher = more virus-infected cells; cell count: higher = more cells in the well
- Hit rule: 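Very low infection ranking in both replicate wells (chance probability at most 0.065), then a retest showing infection dropped 1.5-fold or more at p below 0.05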
- Meaning of the calls: active = confirmed: knock-down lowers infection; inactive = not picked or not confirmed
The deposit covers about 22,000 reagents; below is a random part of those with a known target gene and a result. Of all reagents, 116 (0.52%) are marked active. 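Calls depend on retest data that are not deposited; infection was ranked per plate without normalising between plates; the unit of the infection score is not given.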 The raw values are shown without normalisation. Entries without a mark were called inactive. The record does not give: the amount of reagent, the time to read-out.

{"Target gene": "Wdr59 (GeneID 34540)", "dsRNA": "DRSC02771", "infection score, replicate 1": 7.75, "infection score, replicate 2": 21.7, "cell count, replicate 1": 6249, "cell count, replicate 2": 5474}
{"Target gene": "CG14007 (GeneID 33799)", "dsRNA": "DRSC02339", "infection score, replicate 1": 2.4, "infection score, replicate 2": 2.2, "cell count, replicate 1": 6299, "cell count, replicate 2": 6508}
{"Target gene": "Tom20 (GeneID 40189)", "dsRNA": "DRSC10899", "infection score, replicate 1": 7.61, "infection score, replicate 2": 6.59, "cell count, replicate 1": 6241, "cell count, replicate 2": 6240}
{"Target gene": "Oxp (GeneID 37002)", "dsRNA": "DRSC06712", "infection score, replicate 1": 20.4, "infection score, replicate 2": 15.6, "cell count, replicate 1": 5417, "cell count, replicate 2": 7098}
{"Target gene": "CG9518 (GeneID 32416)", "dsRNA": "DRSC20194", "infection score, replicate 1": 1.81, "infection score, replicate 2": 1.94, "cell count, replicate 1": 6474, "cell count, replicate 2": 6582}
{"Target gene": "CG9518 (GeneID 32416)", "dsRNA": "DRSC27096", "infection score, replicate 1": 5.16, "infection score, replicate 2": 7.7, "cell count, replicate 1": 6575, "cell count, replicate 2": 6413}
{"Target gene": "PIG-T (GeneID 31772)", "dsRNA": "DRSC17774", "infection score, replicate 1": 2, "infection score, replicate 2": 3.79, "cell count, replicate 1": 6589, "cell count, replicate 2": 6758}
{"Target gene": "CG5498 (GeneID 40250)", "dsRNA": "DRSC11608", "infection score, replicate 1": 10.9, "infection score, replicate 2": 12.4, "cell count, replicate 1": 1450, "cell count, replicate 2": 5708}
{"Target gene": "CG32369 (GeneID 38873)", "dsRNA": "DRSC10042", "infection score, replicate 1": 3.74, "infection score, replicate 2": 7.97, "cell count, replicate 1": 5349, "cell count, replicate 2": 5645}
{"Target gene": "CG32369 (GeneID 38873)", "dsRNA": "DRSC10834", "infection score, replicate 1": 8.22, "infection score, replicate 2": 3.47, "cell count, replicate 1": 6542, "cell count, replicate 2": 6311}
{"Target gene": "CG32369 (GeneID 38873)", "dsRNA": "DRSC23995", "infection score, replicate 1": 4.25, "infection score, replicate 2": 1.57, "cell count, replicate 1": 6097, "cell count, replicate 2": 5782}
{"Target gene": "CG7600 (GeneID 39267)", "dsRNA": "DRSC09681", "infection score, replicate 1": 9, "infection score, replicate 2": 2.35, "cell count, replicate 1": 6545, "cell count, replicate 2": 6899}
{"Target gene": "CG7600 (GeneID 39267)", "dsRNA": "DRSC25328", "infection score, replicate 1": 2.86, "infection score, replicate 2": 3.31, "cell count, replicate 1": 6851, "cell count, replicate 2": 6679}
{"Target gene": "CG8312 (GeneID 41163)", "dsRNA": "DRSC16406", "infection score, replicate 1": 6.46, "infection score, replicate 2": 9.52, "cell count, replicate 1": 5775, "cell count, replicate 2": 5324}

Continued, starting with the last 2 of the part before.
{"Target gene": "CG7600 (GeneID 39267)", "dsRNA": "DRSC25328", "infection score, replicate 1": 2.86, "infection score, replicate 2": 3.31, "cell count, replicate 1": 6851, "cell count, replicate 2": 6679}
{"Target gene": "CG8312 (GeneID 41163)", "dsRNA": "DRSC16406", "infection score, replicate 1": 6.46, "infection score, replicate 2": 9.52, "cell count, replicate 1": 5775, "cell count, replicate 2": 5324}
{"Target gene": "Sox100B (GeneID 45039)", "dsRNA": "DRSC15090", "infection score, replicate 1": 6.24, "infection score, replicate 2": 6.7, "cell count, replicate 1": 6538, "cell count, replicate 2": 5524}
{"Target gene": "Sox100B (GeneID 45039)", "dsRNA": "DRSC23485", "infection score, replicate 1": 4.26, "infection score, replicate 2": 1.74, "cell count, replicate 1": 6341, "cell count, replicate 2": 6318}
{"Target gene": "CG10283 (GeneID 35102)", "dsRNA": "DRSC02034", "infection score, replicate 1": 4.33, "infection score, replicate 2": 7.68, "cell count, replicate 1": 6629, "cell count, replicate 2": 6533}
{"Target gene": "CG10283 (GeneID 35102)", "dsRNA": "DRSC25302", "infection score, replicate 1": 4.58, "infection score, replicate 2": 5.39, "cell count, replicate 1": 6391, "cell count, replicate 2": 6231}
{"Target gene": "CG31515 (GeneID 326147)", "dsRNA": "DRSC13610", "infection score, replicate 1": 2.88, "infection score, replicate 2": 2.49, "cell count, replicate 1": 5964, "cell count, replicate 2": 5470}
{"Target gene": "Klp3A (GeneID 31240)", "dsRNA": "DRSC18676", "infection score, replicate 2": 2.31, "cell count, replicate 1": 103, "cell count, replicate 2": 6705}
{"Target gene": "Klp3A (GeneID 31240)", "dsRNA": "DRSC21625", "infection score, replicate 1": 5.33, "infection score, replicate 2": 7.46, "cell count, replicate 1": 5811, "cell count, replicate 2": 5900}
